The values below come from article PMC6332427, “Drug Discovery of Host CLK1 Inhibitors for Influenza Treatment” (Molecules, 2015).

The subject of the data set is influenza virus A/PR/8/34 (H1N1).

Hispidulin [J20353]: the “Pre-Treatment Assay SI (selective index, CC50/EC50)” value was 3.19 and the “Simultaneous Treatment Assay SI (selective index, CC50/EC50)” value amounted to 11.47.
